Pooled drug test results. Numbers come from NIAID ChemDB, via PubChem.

Shared fields: whole-cell or culture tests

Blank or dashed fields: not listed here. Fold resistance has wild type as its base. ECn: concentration that inhibits the pathogen or its effect by n%. MIC50, MIC90 and the like: level of inhibition, or share of isolates inhibited. a–b is a range or a potency band. Neighbouring rows are from separate reports. Percent inhibition refers to the dose given; in toxicity tests it is the harm to the cells.

SMILES | agent | strain or isolate | changes | cells | read by | measure | dose | value
O=C1[C@@H](Cc2ccccc2)NC(=S)N1Cc1ccccc1 | HIV-2 |  |  | MT-4 | RT activity | inhibition | 100 µg/mL | 98%
CSc1nsc(-c2ccc(Cl)cc2)c1C#N | Encephalomyocarditis virus | Encephalomyocarditis virus |  | L929 | plaque count | EC50 |  | >5 µM
CC(C)(C)c1ccc(CSc2ncnc3c2ncn3[C@@H]2O[C@H](CO)[C@@H](O)[C@H]2O)cc1 | Toxoplasma gondii | RH (WILD TYPE) |  |  |  | inhibition | 10 µM | 28.3%
O=C1[C@@H](Cc2ccccc2)NC(=S)N1c1ccccc1 | HIV-2 |  |  | MT-4 | cytopathic effect / XTT | inhibition | 1 µg/mL | 37%
Cc1ccc(C)n1-c1ccc(C(=O)O)c(O)c1 | HIV-1 | 92US657 R5 CLADE B |  | PBMC/5.25M7 | luciferase / cell fusion | EC90 |  | 165 µM
O=C(NCCc1ccccc1)Nc1nc2c(Cl)cccc2s1 | HIV-2 |  |  | MT-4 | RT activity | inhibition | 1 µg/mL | 6%
CCCCCCCCN=C(N)c1ccc(N2CCN(c3ccccc3)CC2)cc1 | Pneumocystis carinii |  |  |  |  | inhibition | 10 µg/mL | 93%
CC(C)(O)c1cn(-c2ccc([N+](=O)[O-])cc2)nn1 | Candida tropicalis | URM 916 |  |  | broth dilution | inhibition | 2048 µg/mL | 0%
C=C/C(C)=C/[C@@]1(C)SC(=O)C(C)=C1O | Escherichia coli | UB1005/PSJ13 |  |  |  | MIC |  | 25 µM
CCCCCCCCCCCCN=C(N)c1ccc(N2CCN(c3ccccc3)CC2)cc1 | Pneumocystis carinii |  |  |  |  | inhibition | 0.1 µg/mL | 0%
COc1ccc(-n2c(C(=O)N[C@H](c3ccccc3)C(C)C)c3n(c2=O)CCN(C(=O)c2ccc(Br)c(Cl)c2)C3)cc1 | Hepatitis B virus |  |  | HepG2.117 | PCR | EC50 |  | 0.5–5 µM
C[C@@H](c1nc(-c2ccc(C#N)cc2)cs1)[C@](O)(Cn1cncn1)c1cc(F)ccc1F | Cryptococcus gattii | VG IIc |  |  | broth dilution | MIC90 |  | 0.5 µg/mL
CC(C)(O)c1cn(-c2cccc3ccccc23)nn1 | Candida parapsilosis | URM 4889 |  |  | broth dilution | inhibition | 2048 µg/mL | 0%
Nc1nc2c(ncn2COC(CO)CO)c(=O)[nH]1 | Vervet monkey cytomegalovirus | CSG |  | HET | plaque count | EC50 |  | 9 µM
C/C=C\[C@@H]1C[C@H](C(=O)O)N[C@H]1[C@@H](NC(C)=O)[C@](C)(CCC)OC | Influenza A virus | H1N1 TEXAS/36/91 |  | MDCK | plaque count | EC50 |  | 0.0004 µM
Cc1cc(CCCOc2c(C)cc(-c3noc(C(F)(F)F)n3)cc2C)on1 | Rhinovirus | Isolate 12 |  | OHIO HELA-I | cytopathic effect / visual reading | EC50 |  | 0.03 µg/mL
CCO/N=C/c1ccc(OCCC2CCN(c3ccc(Cl)nn3)CC2)cc1 | Rhinovirus | 33342 (ICAM-1 receptor group 17) |  | KB | neutral red | EC50 |  | 0.019 µM
CCCCN1C(=O)[C@@H](Cc2ccccc2)NC1=S | HIV-2 |  |  | MT-4 | cytopathic effect / XTT | inhibition | 10 µg/mL | 82%
CSc1nsc(-c2ccc(C)cc2)c1C#N | Measles virus | Edmonston |  | HEP-2 | plaque count | EC50 |  | >18 µM
C[C@H](Oc1ccc(CNC(=O)c2c3n(c(=O)n2-c2ccc(OCC(F)(F)F)cc2)CCN(C(=O)c2ccc(Br)c(Cl)c2)C3)c(F)c1)C(N)=O | Hepatitis B virus |  |  | HepG2.117 | PCR | EC50 |  | 0.5–5 µM
CN[C@H]1CC[C@@H](c2ccc(Cl)c(Cl)c2)c2ccccc21 | Cryptococcus neoformans | A7-35-23 |  |  | broth dilution | MFC |  | 10 µg/mL
CN(C)c1cc(NC(=O)CNC(C)(C)C)c(O)c2c1C[C@H]1C[C@H]3[C@H](N(C)C)C(=O)C(C(N)=O)=C(O)[C@@]3(O)C(=O)C1=C2O | Enterococcus faecalis | 20 strains (vancomycin-susceptible) |  |  |  | MIC90 |  | 0.25 µg/mL
O=C(NCCc1ccccc1)Nc1nc(C(F)(F)F)cs1 | HIV-2 |  |  | MT-4 | cytopathic effect / XTT | inhibition | 10 µg/mL | 38%
N#Cc1c(Cl)nsc1Cl | Encephalomyocarditis virus | Encephalomyocarditis virus |  | L929 | plaque count | EC50 |  | >4 µM
CCCN=C(N)c1ccc(N2CCN(c3ccccc3)CC2)cc1 | Pneumocystis carinii |  |  |  |  | inhibition | 50 µg/mL | 88%
O=C(N[C@@H](C(=O)N1CCC[C@H]1c1ncc(-c2ccc(-c3ccc(-c4cnc([C@@H]5CCCN5C(=O)[C@H](NC(=O)C5CC5)c5ccccc5)s4)cc3)cc2)s1)c1ccccc1)C1CC1 | Hepatitis C virus | genotype 1b | M202L | Huh7.5 | luciferase / reporter gene | fold resistance |  | 1
O=C(NCCc1ccccc1)Nc1nc2ccccc2s1 | HIV-2 |  |  | MT-4 | RT activity | inhibition | 1 µg/mL | 87%
CC(C)(O)c1cn(-c2ccc(Cl)cc2)nn1 | Candida parapsilosis | ATCC 22019 |  |  | broth dilution | MIC |  | 256 µg/mL
C=CCc1ccc(OC)c(OC)c1 | Candida tropicalis | 3079 |  |  | turbidity | MIC90 |  | 340 µg/mL
COc1ccc(-n2c(C(=O)N[C@@H](c3ccccc3)C(F)F)c3n(c2=O)CCN(C(=O)c2ccc(Br)c(Cl)c2)C3)cc1 | Hepatitis B virus |  |  | HepG2.117 | PCR | EC50 |  | 0.1–0.5 µM
O=C(NCc1ccc(Cl)cc1)c1cn2c3c(cc(CN4CCOCC4)cc3c1=O)OC(c1cccnc1)C2 | Herpes simplex virus 2 | 11680 (ACV-resistant) |  | HFF | plaque count | EC50 |  | 7.5 µM
OC[C@H]1O[C@@H](n2cnc3c(SCc4ccc(Cl)cc4Cl)ncnc32)[C@H](O)[C@@H]1O | Toxoplasma gondii | RH (WILD TYPE) |  |  |  | inhibition | 5 µM | 5.2%
CC(C)(O)c1cn(-c2ccccc2)nn1 | Candida parapsilosis | URM 4804 |  |  | broth dilution | inhibition | 2048 µg/mL | 0%
Cn1cc(C(=O)NCc2ccc(Cl)cc2)c(=O)c2cc(CN3CCOCC3)ccc21 | Herpes simplex virus 2 | L6010541 (WILD TYPE) |  | HFF | plaque count | EC50 |  | 3.6 µM
CN=C(N)c1ccc(N2CCN(c3ccccc3)CC2)cc1 | Pneumocystis carinii |  |  |  |  | inhibition | 0.1 µg/mL | 42%
CSc1nsc(C)c1C#N | Measles virus | Edmonston |  | HEP-2 | plaque count | EC50 |  | >100 µM
O=C(NCCc1ccccc1)Nc1nc2ccc(F)cc2s1 | HIV-2 |  |  | MT-4 | cytopathic effect / XTT | inhibition | 100 µg/mL | 93%
C[C@H](NC(=O)c1c2n(c(=O)n1-c1ccc(OC3CC3)cc1)C[C@@H](C)N(C(=O)c1ccc(Br)c(Cl)c1)C2)c1ccccc1F | Hepatitis B virus |  |  | HepG2.117 | PCR | EC50 |  | 0.5–5 µM
CCC(C)n1ncn(-c2ccc(N3CCN(c4ccc(OC[C@H]5CO[C@](Cn6cncn6)(c6ccc(Cl)cc6Cl)O5)cc4)CC3)cc2)c1=O | Aspergillus fumigatus | AF293 |  |  | broth dilution | inhibition | 8 µg/mL | 99.76%
Cn1cc(C(=O)NCc2ccc(Cl)cc2)c(=O)c2cc(CN3CCOCC3)ccc21 | Varicella zoster virus | DE varicella isolate |  | HFF | plaque count | EC50 |  | 0.3 µM
CSc1nsc(-c2c(Cl)cccc2Cl)c1C#N | Measles virus | Edmonston |  | HEP-2 | plaque count | EC50 |  | >5 µM